{
  "source": "patent US20250248992A1",
  "about": "“INNATE IMMUNE-ACTIVATING DRUG AND USE THEREOF” (LUODA BIOPHARMA (SUZHOU) CO., LTD., priority 2021, published 2025)",
  "system": "VSV-GFP",
  "experiment": "Inhibition of VSV-GFP infection in A549 cells",
  "format": "cell-based, Vesicular stomatitis virus (VSV)",
  "data": [
    {"compound": "Nc1ccc2c(N)c3ccccc3nc2c1", "values": [
      {"measurement": "SI (Selection Index)", "value": 135.1}
    ]}
  ]
}
